According to patent US20110189730 (published 2011):

Molecular target: T1, Sin Nombre hantavirus nucleocapsid protein (N) (Sin Nombre hantavirus) (UniProt Q89462)
T1 sequence (limits assumed): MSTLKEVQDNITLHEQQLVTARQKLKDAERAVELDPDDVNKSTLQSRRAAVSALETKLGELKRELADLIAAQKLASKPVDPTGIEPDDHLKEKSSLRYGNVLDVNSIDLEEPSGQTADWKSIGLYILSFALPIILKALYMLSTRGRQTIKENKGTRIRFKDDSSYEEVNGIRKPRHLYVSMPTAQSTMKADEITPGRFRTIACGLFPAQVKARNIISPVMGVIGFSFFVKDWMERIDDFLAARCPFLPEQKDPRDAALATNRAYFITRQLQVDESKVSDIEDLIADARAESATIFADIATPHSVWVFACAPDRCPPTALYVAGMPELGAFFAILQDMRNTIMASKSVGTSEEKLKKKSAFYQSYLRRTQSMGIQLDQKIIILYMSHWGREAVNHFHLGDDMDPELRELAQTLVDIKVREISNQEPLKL
Assay: filter binding
Conditions: 5' m7G cap; purified recombinant protein; protein details: C-terminal octahistidine tag, expressed in E. coli; label: 32P-CTP; only the motif is given; variant of m7GUCUCC capped hexamer

GUCUC [m7GUCUC capped pentamer]: binds.

The exact form of at least one protein or probe is not confirmed. Tags and fusion partners may be left off the protein sequences shown.
